Anti-infective test results gathered from many reports (values: NIAID ChemDB through PubChem).

Common to all: target-level tests; organism: HIV-1; target: Reverse transcriptase; method: nucleotide incorporation / radiometric; read-out: IC50

ICn: concentration for n% inhibition. Lines come from different laboratories, so protocols vary. Two numbers with a dash give a range or band. An empty or dashed field is not shown.

structure | mutations | strain or isolate | result
CCN1c2ncc(CCOc3ccc(-c4ccc(CC(=O)O)cc4)cc3C)cc2-c2ncc(C)n2-c2cccnc21 | - | - | <0.05 µM
CN1C(=O)c2cc(N)ccc2Oc2ncccc21 | - | LAV | 10 µg/mL
C=CCO/N=C/c1cc(NC(=S)c2ccoc2C)ccc1Cl | RT-V106A | - | 20 µM
CSCCN1C(=O)c2ccccc2Oc2nc(Cl)ccc21 | - | LAV | <10 µg/mL
CCN1c2ncc(CCOc3ccc(C(=O)O)c4c3CCCC4)cc2C(=O)N(C)c2ccc(F)nc21 | RT-Y188L | - | 0.1–1 µM
CS(=O)(=O)c1ccc(NC(=O)COc2ccc(Cl)c(Oc3cc(Cl)cc(C#N)c3)c2)c(Cl)c1 | - | - | <20 µM
CCN1c2ncc(CCc3ccc4c(SC)c[nH]c4c3)cc2C(=O)N(C)c2ccc(Cl)nc21 | RT-Y181C | - | <1 µM
C=CCN1C(=O)c2cccc(C)c2Oc2ncccc21 | - | LAV | <10 µg/mL
Cc1occc1C(=S)Nc1ccc(Cl)c(C(=O)OCC2CC2)c1 | - | - | 6 µM
N#Cc1cc(Cl)cc(Oc2cc(Cl)cc(OCC(=O)Nc3ccc(C(N)=O)cc3Cl)c2)c1 | - | - | <20 µM
CCN1c2ncc(CCOc3cccc4c3CNC(=O)N4)cc2-c2nccn2-c2c(C)ccnc21 | RT-K103N Y181C | - | <0.05 µM
CCN1c2ncc(CCc3cn[nH]c3)cc2C(=O)Nc2c(C)ccnc21 | RT-Y181C | - | <1 µM
CC(=O)O[C@H]1C[C@](C)(O)/C=C/C[C@@H](C)/C=C/[C@@]2(C)CC[C@@H](C(C)(C)OC(C)=O)[C@H]12 | - | - | >40 µM
C=CCN1C(=O)c2ccccc2Oc2nc(Cl)ccc21 | - | LAV | <10 µg/mL
CCN1c2ncccc2C(=O)N(C)c2ccc(-c3ccn[nH]3)nc21 | RT-Y188L | - | >1 µM
CCN1c2ncc(CCOc3ccc(/C=C(\C)C(=O)O)c4ccccc34)cc2C(=O)N(C)c2cccnc21 | RT-Y188L | - | >1 µM
CCN1c2ncc(CCc3cc[n+]([O-])cc3)cc2C(=O)N(C)c2ccc(F)nc21 | RT-Y181C | - | <1 µM
CN1C(=O)c2cccnc2N(C)c2nc(-c3ccc[nH]3)ccc21 | RT-Y181C | - | <1 µM
CCN1c2ncc(CCc3ccccc3N)cc2C(=O)N(C)c2ccc(Cl)nc21 | - | WT | <1 µM
CCN1c2ncc(CCOc3cccc4c3COC(=O)N4)cc2-c2ncc(C)n2-c2cccnc21 | - | - | <0.05 µM
N#Cc1cc(Cl)cc(Oc2cc(OCc3nc4ccccc4s3)ccc2Cl)c1 | - | - | <20 µM
CCN1c2ncc(CCOc3ccc(CCC(=O)O)c4ccccc34)cc2C(=O)N(C)c2ccc(F)nc21 | - | WT | <0.1 µM
CCN1c2ncc(CCOc3ccc(C(=O)O)c4c3CCCC4)cc2-c2ncc(C)n2-c2cccnc21 | RT-K103N Y181C | - | >0.1 µM
CCN1c2ncccc2C(=O)N(C)c2ccc(-c3cn[nH]c3)nc21 | RT-Y181C | - | <1 µM
CCN1c2ncc(CCOc3ccc(CC(=O)O)c4ccccc34)cc2C(=O)Nc2c(C)cc(F)nc21 | RT-Y188L | - | >1 µM
CCN1c2ncccc2C(=O)N(C)c2ccc(-c3cccn3C(C)=O)nc21 | RT-Y188L | - | >1 µM
Cc1occc1C(=S)Nc1ccc(Cl)c(/C=N/OC(C)(C)C)c1 | RT-Y188H | - | 17 µM
CCN1c2ncccc2C(=O)N(C)c2ccc(-c3c[nH]c(C#N)c3)nc21 | - | WT | <1 µM
CCN1C(=O)c2cccc(C)c2Oc2ncccc21 | - | LAV | <10 µg/mL
Cc1cc(OCCN(C)C)ccc1NC(=O)COc1ccc(Cl)c(Oc2cc(Cl)cc(C#N)c2)c1 | - | - | <20 µM
CCN1c2ncc(CCOc3ccc4c(c3)C(C)(C)NS4(=O)=O)cc2-c2nccn2-c2c(C)ccnc21 | - | - | <0.05 µM
CCN1c2ncccc2C(=O)N(C)c2ccc(-c3c[nH]c(C(N)=O)c3)nc21 | RT-Y188L | - | >1 µM
CCN1c2ncc(CCOc3cccc4c3CN(C)C(=O)N4C)cc2-c2ncc(C)n2-c2cccnc21 | RT-K103N Y181C | - | >0.1 µM
N#Cc1cc(Cl)cc(Oc2cc(OCc3cn(-c4ccccc4)nn3)ccc2Cl)c1 | - | - | <20 µM
CCN1c2ncccc2C(=O)N(C)c2ccc(-c3cc4cc(OC)ccc4[nH]3)nc21 | - | WT | <1 µM
CS(=O)(=O)c1ccc(NC(=O)COc2cc(Cl)cc(Oc3cc(Cl)cc(C#N)c3)c2)c(Cl)c1 | - | - | <20 µM
C/C=C/CN1C(=O)c2ccccc2Oc2ncccc21 | - | LAV | >10 µg/mL
CCN1c2ncccc2C(=O)N(C)c2ccc(-c3ccn(C)c3)nc21 | - | WT | <1 µM
NS(=O)(=O)c1ccc(NC(=O)COc2cc(Cl)cc(Oc3ccccc3)c2)c(Cl)c1 | - | - | <20 µM
CCN1c2nc(Cl)ccc2NC(=O)c2cc(CCc3ccncc3)cnc21 | - | WT | <1 µM

The first 3 rows once more:

CCN1c2ncc(CCOc3ccc(-c4ccc(CC(=O)O)cc4)cc3C)cc2-c2ncc(C)n2-c2cccnc21 ; result: <0.05 µM
CN1C(=O)c2cc(N)ccc2Oc2ncccc21 ; strain or isolate: LAV ; result: 10 µg/mL
C=CCO/N=C/c1cc(NC(=S)c2ccoc2C)ccc1Cl ; mutations: RT-V106A ; result: 20 µM